For data set [1], the system named is HCoV-229E. The data set is described as follows: HCoV-229E-Luc infection assay (luciferase) in Huh-7 cells. It counts as cell-based. The conditions noted are these: purified compounds, CC50/IC50, Huh-7 (head prints Huh-7/TMPRSS2).
In data set [2] the test system is HCoV-229E. In words: HCoV-229E-Luc infection assay (luciferase) in Huh-7/TMPRSS2 cells. The format is cell-based. The conditions noted are these: purified compounds, CC50/IC50, Huh-7/TMPRSS2.

As for `C[C@H]1[C@H](C)CC[C@]2(C(=O)O)CC[C@]3(C)C(=CC[C@@H]4[C@@]5(C)C[C@@H](OC(=O)/C=C/c6ccc(O)cc6)[C@H](O)C(C)(C)[C@@H]5CC[C@]43C)[C@H]12` [F2-2, 3β-hydroxy-2α-trans-p-coumaryloxy-urs-12-en-28-oic acid], the “SI (column after Huh-7 IC50)” value in the data set on HCoV-229E [1] is 3. In the data set on HCoV-229E [2], the “Huh-7/TMPRSS2 SI” value amounted to 3.

Regarding `C[C@H]1[C@H](C)CC[C@]2(C(=O)O)CC[C@]3(C)C(=CC[C@@H]4[C@@]5(C)C[C@@H](OC(=O)/C=C\c6ccc(O)cc6)[C@H](O)C(C)(C)[C@@H]5CC[C@]43C)[C@H]12` [F2-3, 3β-hydroxy-2α-cis-p-coumaryloxy-urs-12-en-28-oic acid], in the data set on HCoV-229E [1], the “SI (column after Huh-7 IC50)” value is 3. Further, the “Huh-7/TMPRSS2 SI” value in the data set on HCoV-229E [2] is recorded as 3.

For the molecule `CC1(C)CC[C@]2(C(=O)O)CC[C@]3(C)C(=CC[C@@H]4[C@@]5(C)CC[C@H](OC(=O)/C=C/c6ccc(O)c(O)c6)C(C)(C)[C@@H]5CC[C@]43C)[C@@H]2C1` [F4-2, 3-O-trans-caffeoyl-oleanolic acid], in the data set on HCoV-229E [1], the “SI (column after Huh-7 IC50)” value was determined as 6. Further, the “Huh-7/TMPRSS2 SI” value in the data set with HCoV-229E [2] is 7.

Regarding `CC1(C)CC[C@]2(C(=O)O)CC[C@]3(C)C(=CC[C@@H]4[C@@]5(C)CC[C@H](OC(=O)/C=C/c6ccc(O)cc6)C(C)(C)[C@@H]5CC[C@]43C)[C@@H]2C1` [F7-1, 3-O-trans-p-coumaroyl-oleanolic acid], in the data set with HCoV-229E [1], the “SI (column after Huh-7 IC50)” value was 3. In addition, in the data set with HCoV-229E [2], the “Huh-7/TMPRSS2 SI” value is recorded as 3.

(Values after PMC10705938, “Discovery of Anti-Coronavirus Cinnamoyl Triterpenoids Isolated from Hippophae rhamnoides during a Screening of Halophytes from the North Sea and Channel Coasts in Northern France” (International Journal of Molecular Sciences, 2023).)
